# Test results from patent US12012411B2, “Viral replication inhibitors” (Katholieke Universiteit Leuven, priority 2011, dated 2024).
# System: DENV-2 NGC
# Assay: Antiviral activity against DENV-2 NGC in Vero-B cells (viral RNA load by RT-qPCR)
# Type: cell-based, Dengue virus
# Details: DENV-2 in Vero-B cells (Table 3); ratio CC50 / EC50
row,Compound,SI
1,COc1cc(NC(C(=O)c2c[nH]c3c(CCO)cccc23)c2ccccc2)cc(OC)c1 (stereo not drawn) [CPD-339],205
2,COc1cc(NC(C(=O)c2c[nH]c3ccc(CO)cc23)c2ccccc2)cc(OC)c1 (stereo not drawn) [CPD-351],605
3,COc1cccc(N(C)C(C(=O)c2c[nH]c3ccccc23)c2ccccc2)c1 (stereo not drawn) [CPD-018],52
4,COc1cc(CO)cc(NC(C(=O)c2c[nH]c3c(C)cccc23)c2ccccc2)c1 (stereo not drawn) [CPD-318],967
5,COc1cc(NC(C(=O)c2c[nH]c3ccccc23)c2cn3ccccc3n2)ccn1 (stereo not drawn) [CPD-064],8
6,COc1cccc(NC(C(=O)c2c[nH]c3ccccc23)c2cccc3ccnn23)c1 (stereo not drawn) [CPD-043],>440
7,COc1cccc(NC(C(=O)c2c[nH]c3cccc(F)c23)c2ccccc2)c1 (stereo not drawn) [CPD-230],176
8,COc1cc(NC(C(=O)c2c[nH]c3cc(C#N)ccc23)c2ccccc2)ccn1 (stereo not drawn) [CPD-093],5
9,COc1cccc(NC(C(=O)c2c[nH]c3ccncc23)c2ccccc2)c1 (stereo not drawn) [CPD-201],6
10,COc1cccc(NC(C(=O)c2c[nH]c3ccccc23)c2ccc(C(F)(F)F)nc2)c1 (stereo not drawn) [CPD-315],265
11,COc1cccc(NC(C(=O)c2c[nH]c3ccccc23)c2cncc(OC)c2)c1 (stereo not drawn) [CPD-312],15
12,COc1cc(CN(C)C)cc(NC(C(=O)c2c[nH]c3ccccc23)c2ccccc2)c1 (stereo not drawn) [CPD-263],6
13,COc1cc(NC(C(=O)c2c[nH]c3ccc(CCO)cc23)c2ccccc2)cc(OC)c1 (stereo not drawn) [CPD-370],1152
14,COc1cccc(NC(C(=O)c2c[nH]c3ncccc23)c2ccccc2)c1 (stereo not drawn) [CPD-194],65
15,COc1cc(CO)cc(NC(C(=O)c2c[nH]c3ccc(F)cc23)c2ccccc2)c1 (stereo not drawn) [CPD-296],605
16,COc1cc(CO)cc(NC(C(=O)c2c[nH]c3ccccc23)c2cccnc2)c1 (stereo not drawn) [CPD-282],>490
17,COc1cccc(NC(C(=O)c2c[nH]c3ccccc23)c2ccc(CN(C)C)cc2)c1 (stereo not drawn) [CPD-124],5
18,COc1cc(NC(C(=O)c2c[nH]c3c(C)cccc23)c2ccccc2)cc(OCCO)c1 (stereo not drawn) [CPD-331],736
19,COc1cc(NC(C(=O)c2cn(S(C)(=O)=O)c3ccccc23)c2ccccc2)ccn1 (stereo not drawn) [CPD-121],10
20,COc1cccc(NC(C(=O)c2cn(C)c3ccc(F)cc23)c2ccccc2)c1 (stereo not drawn) [CPD-137],>2762
21,COc1cccc(NC(C(=O)c2c[nH]c3ccccc23)c2c(F)cc(C#N)cc2F)c1 (stereo not drawn) [CPD-133],499
22,CCOc1cccc(NC(C(=O)c2c[nH]c3ccccc23)c2ccccc2)c1 (stereo not drawn) [CPD-003],114

row,Compound,SI
1,COc1cccc(NC(C(=O)c2cn(CCN)c3ccccc23)c2ccccc2)c1 (stereo not drawn) [CPD-105],11
2,COc1cc(NC(C(=O)c2c[nH]c3nc(C)ccc23)c2ccccc2)cc(OC)c1 (stereo not drawn) [CPD-232],>1206
3,O=C(c1c[nH]c2ccccc12)C(Nc1ccc(F)c(F)c1)c1ccccc1 (stereo not drawn) [CPD-007],2
4,O=C(c1c[nH]c2ccccc12)C(Nc1cccc(OC(F)(F)F)c1)c1ccccc1 (stereo not drawn) [CPD-005],6
5,COc1cc(NC(C(=O)c2c[nH]c3ccccc23)c2ccc(F)cc2)cc(OC)c1 (stereo not drawn) [CPD-235],3701
6,COc1cc(NC(C(=O)c2c[nH]c3ccccc23)c2ccccc2)cnc1OC (stereo not drawn) [CPD-256],433
7,COc1cccc(NC(C(=O)c2c[nH]c3ccccc23)c2ccccc2)c1OC (stereo not drawn) [CPD-040],>30
8,CC(NC(C(=O)c1c[nH]c2ccccc12)c1ccccc1)c1ccco1 (stereo not drawn) [CPD-180],>2
9,COc1cccc(NC(C(=O)c2c[nH]c3ccccc23)c2cn3cc(F)ccc3n2)c1 (stereo not drawn) [CPD-110],127
10,COc1cncc(NC(C(=O)c2c[nH]c3ccccc23)c2ccc(OC)nc2)c1 (stereo not drawn) [CPD-158],746
11,COc1cccc(NC(C(=O)c2c[nH]c3ccccc23)c2ccc(-c3cncnc3)cc2)c1 (stereo not drawn) [CPD-048],>54
12,COc1cccc(NC(C(=O)c2c[nH]c3cc(Cl)ccc23)c2ccccc2)c1 (stereo not drawn) [CPD-118],943
13,COc1cc(NC(C(=O)c2c[nH]c3c(Cl)cccc23)c2ccccc2)ccn1 (stereo not drawn) [CPD-101],2
14,COc1cc(NC(C(=O)c2c[nH]c3ccc(F)cc23)c2ccc(OC)nc2)cc(OC)c1 (stereo not drawn) [CPD-206],625
15,COc1cccc(NC(C(=O)c2c[nH]c3ccccc23)c2cn3c(F)cccc3n2)c1 (stereo not drawn) [CPD-109],159
16,COc1cc(NC(C(=O)c2c[nH]c3ccccc23)c2ccccc2)cnc1N(C)C (stereo not drawn) [CPD-257],37
17,COc1cccc(NC(C(=O)c2c[nH]c3ccccc23)c2ccc(O)nc2)c1 (stereo not drawn) [CPD-063],>9
18,COc1cccc(NC(C(=O)N2CCc3ccccc32)c2ccccc2)c1 (stereo not drawn) [CPD-056],>312
19,O=C(O)c1cccc(NC(C(=O)c2c[nH]c3ccccc23)c2ccccc2)c1 (stereo not drawn) [CPD-071],2
20,COc1cc(NC(C(=O)c2c[nH]c3ccccc23)c2ccc(C)cc2)cc(OCCO)c1 (stereo not drawn) [CPD-369],1306
21,COc1cccc(NC(C(=O)c2c[nH]c3c(C)cccc23)c2cc3ccccn3n2)c1 (stereo not drawn) [CPD-329],2980
22,COc1cccc(NC(C(=O)c2c[nH]c3ccccc23)c2cc(C)no2)c1 (stereo not drawn) [CPD-102],105

row,Compound,SI
1,COc1cccc(NC(C(=O)c2c[nH]c3ccccc23)c2ccc(N(C)C)nc2)c1 (stereo not drawn) [CPD-239],>6
2,COc1cccc(NC(C(=O)c2nn(C)c3ccccc23)c2ccccc2)c1 (stereo not drawn) [CPD-203],>185
3,COc1cccc(NC(C(=O)c2c[nH]c3ccccc23)c2cn3cc(C)ccc3n2)c1 (stereo not drawn) [CPD-098],>11
4,O=C(c1c[nH]c2ccccc12)C(NC1CCCC1)c1ccccc1 (stereo not drawn) [CPD-183],6
5,COc1ccc(C(Nc2cccc(OC)c2)C(=O)c2c[nH]c3ccccc23)nc1 (stereo not drawn) [CPD-310],454
6,COc1cccc(NC(C(=O)c2c[nH]c3ccccc23)c2cccc(C)c2)c1 (stereo not drawn) [CPD-138],74
7,CC(C)Oc1cncc(NC(C(=O)c2c[nH]c3ccccc23)c2ccccc2)c1 (stereo not drawn) [CPD-247],37
8,COc1cccc(NC(C(=O)c2c[nH]c3c(F)cccc23)c2ccccc2)c1 (stereo not drawn) [CPD-205],244
9,COc1cc(NC(C(=O)c2c[nH]c3cc(Cl)ccc23)c2cn3ccccc3n2)ccn1 (stereo not drawn) [CPD-069],33
10,COc1cccc(NC(C(=O)c2c[nH]c3ccccc23)c2cn3cccc(C)c3n2)c1 (stereo not drawn) [CPD-088],>48
11,COc1cc(NC(C(=O)c2c[nH]c3ccccc23)c2ccccc2)cc(OCCCO)c1 (stereo not drawn) [CPD-361],586
12,COc1cccc(NC(C(=O)c2c[nH]c3ccccc23)c2cccs2)c1 (stereo not drawn) [CPD-024],27
13,"COc1cccc(NC(C(=O)c2c[nH]c3ccccc23)c2cc3ccccn3n2)c1 (single isomer, unassigned) [CPD-325]",731
14,COc1cccc(NC(C(=O)c2c[nH]c3ccccc23)c2cc(C)n(C)n2)c1 (stereo not drawn) [CPD-267],61
15,COc1cccc(NC(C(=O)c2c[nH]c3ccccc23)c2nccn2C)c1 (stereo not drawn) [CPD-026],>8
16,COc1cccc(NC(C(=O)c2c[nH]c3ccccc23)c2ccncc2)c1 (stereo not drawn) [CPD-020],114
17,O=C(c1c[nH]c2ccccc12)C(Nc1ccc2[nH]c(=O)oc2c1)c1ccccc1 (stereo not drawn) [CPD-057],2
18,O=C(c1c[nH]c2ccccc12)C(Nc1cccc(N2CCCC2=O)c1)c1ccccc1 (stereo not drawn) [CPD-181],>28
19,COc1cncc(NC(C(=O)c2c[nH]c3ccccc23)c2ccc(C#N)cc2)c1 (stereo not drawn) [CPD-159],624
20,COc1cccc(NC(C(=O)c2cn(CCO)c3ccc(F)cc23)c2ccccc2)c1 (stereo not drawn) [CPD-146],498
21,COc1cc(NC(C(=O)c2c[nH]c3ccccc23)c2cscn2)ccn1 (stereo not drawn) [CPD-082],2
22,COc1cncc(NC(C(=O)c2nn(C)c3ccccc23)c2ccccc2)n1 (stereo not drawn) [CPD-276],9

row,Compound,SI
1,COc1cccc(NC(C(=O)c2c[nH]c3cc(Cl)ccc23)c2cc(C)on2)c1 (stereo not drawn) [CPD-116],88
2,COc1cccc(NC(C(=O)c2c[nH]c3ccccc23)c2ccc(CO)cc2)c1 (stereo not drawn) [CPD-127],33
3,CCOc1ccc(NC(C(=O)c2c[nH]c3ccccc23)c2ccccc2)cc1CO (stereo not drawn) [CPD-192],9
4,COc1cc(NC(C(=O)c2c[nH]c3ccccc23)c2ccccc2)c(F)c(OC)c1 (stereo not drawn) [CPD-345],493
5,COc1cccc(NC(C(=O)c2c[nH]c3ccccc23)c2cccc3cnccc23)c1 (stereo not drawn) [CPD-047],39
6,COc1ccc(C(Nc2cncc(OC)n2)C(=O)c2c[nH]c3ccccc23)cn1 (stereo not drawn) [CPD-284],120
7,"COc1cccc(NC(C(=O)c2c[nH]c3ccccc23)c2cc3ccccn3n2)c1 (single isomer, unassigned) [CPD-324]",3306
8,COc1cccc(NC(C(=O)c2c[nH]c3ccccc23)c2cncc(C)c2)c1 (stereo not drawn) [CPD-309],138
9,COc1cc(NC(C(=O)c2c[nH]c3ccccc23)c2ccc(C#N)cc2)cc(OC)c1 (stereo not drawn) [CPD-233],817
10,CCCN1CCC(NC(C(=O)c2c[nH]c3ccccc23)c2ccccc2)CC1 (stereo not drawn) [CPD-184],3
11,COc1ccc2c(C(=O)C(Nc3ccnc(OC)c3)c3ccccc3)c[nH]c2c1 (stereo not drawn) [CPD-076],31
12,COc1cccc(NC(C(=O)c2c[nH]c3ccccc23)c2ccc(C#N)c(F)c2)c1 (stereo not drawn) [CPD-132],235
13,COc1cc(NC(C(=O)c2c[nH]c3ccccc23)c2cn3c(F)cccc3n2)ccn1 (stereo not drawn) [CPD-081],5
14,COc1cccc(NC(C(=O)c2c[nH]c3ccc(OC)cc23)c2ccccc2)c1 (stereo not drawn) [CPD-092],184
15,COc1cc(NC(C(=O)c2c[nH]c3ccccc23)c2ccc(OC)nc2)cc(OCCO)c1 (stereo not drawn) [CPD-291],872
16,COc1cc(NC(C(=O)c2nn(C)c3ccccc23)c2ccccc2)cc(OCCO)c1 (stereo not drawn) [CPD-298],>278
17,COc1cccc(NC(C(=O)c2c[nH]c3ccccc23)c2cn3ccccc3n2)c1 (stereo not drawn) [CPD-030],>1412
18,COc1cccc(NC(C(=O)c2c[nH]c3ccccc23)c2cn3ncccc3n2)c1 (stereo not drawn) [CPD-238],>3548
19,COc1cccc(NC(C(=O)c2c[nH]c3ccccc23)c2ccc(OC(C)C)nc2)c1 (stereo not drawn) [CPD-268],34
20,COc1cccc(NC(C(=O)c2c[nH]c3ccc(S(=O)(=O)N(C)C)cc23)c2ccccc2)c1 (stereo not drawn) [CPD-129],>99
21,COc1cccc(NC(C(=O)c2c[nH]c3c(F)cccc23)c2cccnc2)c1 (stereo not drawn) [CPD-153],>454
